PubChem BioAssay AID504761 – Drosophila RNAi Screening Center | 2011
The deposit covers about 22,000 reagents; shown is an unselected part of those with a known target gene and a result. Of all reagents, 116 (0.52%) got an active call. 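Calls depend on retest data that are not deposited; infection was ranked per plate without normalising between plates; the unit of the infection score is not given.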 Raw values are not corrected between plates. A number with no mark means an inactive call. Further read-outs or replicates are left out here. Not given: the amount of reagent, the time to read-out.

- Test: 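Genome-wide fly cell screen for genes dengue virus requires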 (primary screen)
- Cell system: D.Mel-2 cells from Drosophila
- Reagents: long dsRNA against Drosophila genes
- Treatment: infection with dengue virus type 2; dose and infection time not stated
- Detection: 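Per well on two replicate plates, imaging gave the percent of cells positive for viral envelope protein, ranked by infection, and a nuclear count of cells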
- Scale: infection score: higher = more virus-infected cells; cell count: higher = more cells in the well
- Active means: 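Low infection ranks in the two replicates (chance level up to 0.065) followed by a retest with a 1.5-fold or larger significant decrease, p below 0.05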
- Meaning of the calls: active = confirmed: knock-down lowers infection; inactive = not picked or not confirmed

sav (salvador) [DRSC14681] → infection score, replicate 1: 4.03; cell count, replicate 1: 6484
sav (salvador) [DRSC14682] → infection score, replicate 1: 3.52; cell count, replicate 1: 6781
Hnf4 (Hepatocyte nuclear factor 4) [DRSC03344] → infection score, replicate 1: 4.41; cell count, replicate 1: 5755
Hnf4 (Hepatocyte nuclear factor 4) [DRSC26864] → infection score, replicate 1: 3.08; cell count, replicate 1: 6237
CG32095 [DRSC22615] → infection score, replicate 1: 1.84; cell count, replicate 1: 6745

A stretch taken from the entries so far, as a working copy:
Hnf4 (Hepatocyte nuclear factor 4) [DRSC03344] → infection score, replicate 1: 4.41; cell count, replicate 1: 5755
Hnf4 (Hepatocyte nuclear factor 4) [DRSC26864] → infection score, replicate 1: 3.08; cell count, replicate 1: 6237

The list goes on.
CG11902 [DRSC14434] → infection score, replicate 1: 0.77; cell count, replicate 1: 5698
CG11902 [DRSC28805] → infection score, replicate 1: 6.04; cell count, replicate 1: 2035
CG14537 [DRSC02395] → infection score, replicate 1: 3.27; cell count, replicate 1: 5837
Acp76A (Accessory gland protein 76A) [DRSC09665] → infection score, replicate 1: 5.48; cell count, replicate 1: 6053
Acp76A (Accessory gland protein 76A) [DRSC24824] → infection score, replicate 1: 6.83; cell count, replicate 1: 5136
CG8950 [DRSC07300] → infection score, replicate 1: 6.54; cell count, replicate 1: 6381
CG15322 [DRSC20680] → infection score, replicate 1: 1.17; cell count, replicate 1: 4878
CG15322 [DRSC23023] → infection score, replicate 1: 1.58; cell count, replicate 1: 6187
CG5618 [DRSC11780] → cell count, replicate 1: 429
CG5618 [DRSC28806] → infection score, replicate 1: 18.7; cell count, replicate 1: 5266
